According to article PMC8950700 (Pharmaceuticals, 2022):

Molecular target: NA of the H5N1 virus (Influenza A virus, UniProt A0A0M3MZ16)
Experiment: IC50 used for ligand efficiency profile (Table 3)
Conditions: for LE (ligand efficiency): LE = (pIC50 × 1.37) ÷ NHA; for LLE (ligand lipophilic efficiency): LLE = pIC50 − cLogP

Structure (SMILES)	LE (ligand efficiency)	LLE (ligand lipophilic efficiency)	LLE (ligand lipophilic efficiency) (listed as (2R,3R,4S,5R)-2-((1-((1H-Benzo[d]imidazol-2-yl)methyl)-1H-1,2,3-triazol-4-yl)met)
CC(=O)OC[C@H]1O[C@@H](OCc2cn(Cc3nc4ccccc4o3)nn2)[C@H](OC(C)=O)[C@@H](OC(C)=O)[C@H]1OC(C)=O [Compound 8b, (2R,3S,4S,5R,6R)-2-(Acetoxymethyl)-6-((1-(benzo[d]oxazol-2-ylmethyl)-1H-1,2,3-triazol-4-yl)methoxy)tetrahydro-2H-pyran-3,4,5-triyl Triacetate]	0.28	6.43	
CC(=O)OC[C@H]1O[C@@H](OCc2cn(Cc3nc4ccccc4s3)nn2)[C@H](OC(C)=O)[C@@H](OC(C)=O)[C@H]1OC(C)=O [Compound 8c, (2R,3S,4S,5R,6R)-2-(Acetoxymethyl)-6-((1-(benzo[d]thiazol-2-ylmethyl)-1H-1,2,3-triazol-4-yl)methoxy)tetrahydro-2H-pyran-3,4,5-triyl Triacetate]	0.30	6.88	
CC(=O)O[C@@H]1[C@@H](OC(C)=O)[C@H](OCc2cn(Cc3nc4ccccc4[nH]3)nn2)OC[C@H]1OC(C)=O [Compound 9a, (2R,3R,4S,5R,)-2-((1-((1H-Benzo[d]imidazol-2-yl)methyl)-1H-1,2,3-triazol-4-yl)methoxy)tetrahydro-2H-pyran-3,4,5-triyl Triacetate]	0.34	7.32	7.3
CC(=O)O[C@@H]1[C@@H](OC(C)=O)[C@H](OCc2cn(Cc3nc4ccccc4o3)nn2)OC[C@H]1OC(C)=O [Compound 9b, (2R,3R,4S,5R)-2-((1-(Benzo[d]oxazol-2-ylmethyl)-1H-1,2,3-triazol-4-yl)methoxy)tetrahydro-2H-pyran-3,4,5-triyl Triacetate]	0.34	7.10	
CC(=O)O[C@@H]1[C@@H](OC(C)=O)[C@H](OCc2cn(Cc3nc4ccccc4s3)nn2)OC[C@H]1OC(C)=O [Compound 9c, (2R,3R,4S,5R)-2-((1-(Benzo[d]thiazol-2-ylmethyl)-1H-1,2,3-triazol-4-yl)methoxy)tetrahydro-2H-pyran-3,4,5-triyl Triacetate]	0.33	6.84	
